Anti-infective test results gathered from many reports (values: NIAID ChemDB through PubChem).

Shared fields: tests in culture; agent: Herpes simplex virus 1; read by: plaque count; endpoint: EC50

ECn is the concentration giving n% inhibition of infection, replication or growth. Conditions beyond the fields shown may differ between rows.

{"SMILES": "CCc1cn([C@H]2C[C@H](O)[C@@H](CO)O2)c(=O)[nH]c1=O", "cell line": "VERO", "strain": "F-AMAU-C2", "result": ">200 µM"}
{"SMILES": "CCCCCCCC/C=C\\CCCCCCCOCCCOP(=O)(O)CO[C@H](CO)Cn1ccc(N)nc1=O", "cell line": "HFF", "strain": "E-377", "result": "0.02 µM"}
{"SMILES": "Nc1ncnc2c1ncn2[C@@H]1O[C@H](COP(=O)(O)O)[C@@H](O)[C@@H]1O", "cell line": "MEF", "strain": "Clinical isolate HL-3", "result": "15 µM"}
{"SMILES": "Nc1ccn(C[C@H]2COP(=O)(O)CO2)c(=O)n1", "cell line": "HFF", "strain": "HL-3", "result": "33.11 µM"}
{"SMILES": "Cc1cn([C@@H]2O[C@H](CO)[C@@H](O)[C@@H]2F)c(=O)[nH]c1=O", "cell line": "HELF", "strain": "MP", "result": "0.003 µg/mL"}
{"SMILES": "CSc1nsc(-c2ccc(OS(=O)(=O)c3ccc(C)cc3)cc2)c1C#N", "cell line": "VERO", "strain": "F strain", "result": ">25 µM"}
{"SMILES": "CCCCCCCCCCCCCCCCCCOCCCOP1(=O)CO[C@@H](Cn2ccc(N)nc2=O)CO1", "cell line": "HFF", "strain": "E-377", "result": "0.3 µM"}
{"SMILES": "Nc1ncnc2c1ncn2[C@@H]1O[C@H](CO)[C@@H](O)[C@@H]1O", "cell line": "VERO", "strain": "KOS-M1", "result": "27.2 µM"}
{"SMILES": "O=c1[nH]c(=O)n([C@H]2C[C@H](O)[C@@H](CO)O2)cc1I", "cell line": "HELF", "strain": "MP", "result": "0.66 µg/mL"}
{"SMILES": "O=C(O)CP(=O)(O)O", "cell line": "MEF", "strain": "HL-34", "result": "6.1 µg/mL"}
{"SMILES": "Nc1nc2c(ncn2CCC(CO)CO)c(=O)[nH]1", "cell line": "MRC-5", "strain": "Tomioka", "result": "0.54 µg/mL"}
{"SMILES": "C=Cc1cn([C@@H]2O[C@H](CO)[C@@H](O)[C@@H]2O)c(=O)[nH]c1=O", "cell line": "VERO", "strain": "77", "result": "3.2 µM"}
{"SMILES": "Nc1ccn(C[C@@H](CO)OCP(=O)(O)O)c(=O)n1", "cell line": "HFF", "strain": "HL-34", "result": "1.7 µg/mL"}
{"SMILES": "Nc1nc2c(ncn2COC(CO)CO)c(=O)[nH]1", "cell line": "VERO H", "strain": "5399", "result": "1.08 µM"}
{"SMILES": "Cn1cc(C(=O)NCc2ccc(Cl)cc2)c(=O)c2cc(/C=C\\CO)cc(F)c21", "cell line": "VERO", "strain": "KOS-M1", "result": ">20 µM"}
{"SMILES": "CSc1nsc(-c2ccc(O)cc2)c1C#N", "cell line": "VERO", "strain": "F strain", "result": ">2 µM"}
{"SMILES": "CCCCCCCCCCCCCCCCCCOC[C@H](COP(=O)(O)CO[C@H](CO)Cn1ccc(N)nc1=O)OCc1ccccc1", "cell line": "HFF", "strain": "F", "result": "0.04 µM"}
{"SMILES": "Nc1nc2c(ncn2CC[C@@H](O)CO)c(=O)[nH]1", "cell line": "VERO", "strain": "SC16", "result": "5 µM"}
{"SMILES": "O=C(NCc1ccc(Cl)cc1)c1c[nH]c2ccc(CCCO)cc2c1=O", "strain": "294", "result": "14 µM"}
{"SMILES": "CSc1nsc(-c2ccc(C)cc2)c1C#N", "cell line": "VERO", "strain": "F strain", "result": ">18 µM"}
{"SMILES": "Nc1nc2c(ncn2CCCC(CO)CO)c(=O)[nH]1", "cell line": "VERO", "strain": "C42 (acyclovir-resistant)", "result": "55 µM"}
{"SMILES": "O=C(O)P(=O)(O)O", "cell line": "VERO", "strain": "F-AMAU-C2", "result": "30 µM"}
{"SMILES": "O=c1[nH]c(=O)n([C@@H]2O[C@H](CO)[C@@H](O)[C@@H]2O)cc1/C=C/Cl", "cell line": "HELF", "strain": "CHR-3", "result": "0.017 µg/mL"}
{"SMILES": "Cc1nc(N(C)C(=O)Cc2ccc(-c3ccccn3)cc2)sc1S(N)(=O)=O", "cell line": "VERO", "strain": "KT3", "result": "0.04 µM"}
{"SMILES": "Nc1nc2c(ncn2CC(CO)OCP(=O)(O)O)c(=O)[nH]1", "cell line": "WI-38", "strain": "KOS phosphonoformic acid-resistant", "result": "0.3 µM"}
{"SMILES": "O=c1ccn([C@@H]2O[C@H](CO)[C@@H](O)[C@H]2O)c(=O)[nH]1", "cell line": "VERO", "strain": "V3", "result": ">1000 µM"}
{"SMILES": "Cn1cc(C(=O)NCc2ccc(Cl)cc2)c(=O)c2cc(CN3CCOCC3)ccc21", "cell line": "HFF", "strain": "L6178033", "result": "3 µM"}
{"SMILES": "CSc1nsc(-c2cccs2)c1C#N", "cell line": "VERO", "strain": "F strain", "result": ">6 µM"}
{"SMILES": "CCCCCCCCCCCCCCCCOP(=O)(O)CO[C@H](CO)Cn1ccc(N)nc1=O", "cell line": "HFF", "strain": "F", "result": "0.3 µM"}
{"SMILES": "O=Cc1cn([C@@H]2O[C@H](CO)[C@@H](O)[C@@H]2O)c(=O)[nH]c1=O", "cell line": "VERO", "strain": "77", "result": "460 µM"}
{"SMILES": "O=C(O)P(=O)(O)O", "cell line": "GMK", "strain": "K1R", "result": "109 µM"}
{"SMILES": "Cc1cn([C@@H]2O[C@H](CO)[C@@H](O)[C@@H]2F)c(=O)[nH]c1=O", "cell line": "VERO", "strain": "F-FAU-C2", "result": "3.3 µM"}
{"SMILES": "Cc1cn([C@@H]2O[C@H](CO)[C@@H](O)[C@@H]2O)c(=O)[nH]c1=O", "cell line": "VERO", "strain": "VR-3", "result": "43 µM"}
{"SMILES": "N#Cc1csnc1-c1ccccc1", "cell line": "VERO", "strain": "F strain", "result": ">100 µM"}
{"SMILES": "Nc1nc2c(ncn2CC[C@@H](O)CO)c(=O)[nH]1", "cell line": "VERO", "strain": "7935-72", "result": "1 µM"}
{"SMILES": "CC(=O)OC[C@H]1[C@H](COC(C)=O)[C@@H](COC(C)=O)O[C@H]1n1cnc2c(N)ncnc21", "cell line": "MEF", "strain": "Clinical isolate HL-3", "result": "124 µM"}
{"SMILES": "O=c1[nH]c(=O)n([C@@H]2O[C@H](CO)[C@@H](O)[C@@H]2O)cc1/C=C/I", "cell line": "HELF", "strain": "CHR-3", "result": "0.016 µg/mL"}
{"SMILES": "O=Cc1cn([C@H]2C[C@H](O)[C@@H](CO)O2)c(=O)[nH]c1=O", "cell line": "HELF", "strain": "77", "result": "80 µM"}
{"SMILES": "O=c1[nH]c(=O)n([C@H]2C[C@H](O)[C@@H](CO)O2)cc1I", "cell line": "VERO", "strain": "KOS", "result": "1.1 µM"}
{"SMILES": "O=c1[nH]c(=O)n([C@@H]2O[C@H](CO)[C@@H](O)[C@@H]2O)cc1/C=C/Br", "cell line": "VERO", "strain": "WT-34", "result": "0.17 µM"}
{"SMILES": "O=c1ccn([C@@H]2O[C@H](CO)[C@@H](O)[C@@H]2F)c(=O)[nH]1", "cell line": "VERO", "strain": "F", "result": "0.014 µM"}
{"SMILES": "[O-][n+]1onc2ncnc(N3CC[N+]4(CC3)CC[N+]3(CCN(c5ncnc6no[n+]([O-])c56)CC3)CC4)c21", "cell line": "GMK", "strain": "KUPKA", "result": "8.1 µM"}
{"SMILES": "C[C@@H](c1ccccc1)N(CC(=O)Nc1ccc(-c2csc(N)n2)cc1)C(=O)c1ccncc1", "cell line": "BHK-21/C13", "strain": "294", "result": "0.1 µM"}
{"SMILES": "N#Cc1c(Cl)nsc1Cl", "cell line": "VERO", "strain": "F strain", "result": ">4 µM"}
{"SMILES": "O=C(NCc1ccc(Cl)cc1)c1cn2c3c(cc(CN4CCOCC4)cc3c1=O)OC(c1cccnc1)C2", "cell line": "HFF", "strain": "L6191321 ACV resistant", "result": "7.1 µM"}
{"SMILES": "Nc1nc2c(ncn2CC[C@H](O)CO)c(=O)[nH]1", "cell line": "SIRC", "strain": "C42", "result": "7 µM"}

Repeating the first 4 entries:

SMILES | cell line | strain | result
CCc1cn([C@H]2C[C@H](O)[C@@H](CO)O2)c(=O)[nH]c1=O | VERO | F-AMAU-C2 | >200 µM
CCCCCCCC/C=C\CCCCCCCOCCCOP(=O)(O)CO[C@H](CO)Cn1ccc(N)nc1=O | HFF | E-377 | 0.02 µM
Nc1ncnc2c1ncn2[C@@H]1O[C@H](COP(=O)(O)O)[C@@H](O)[C@@H]1O | MEF | Clinical isolate HL-3 | 15 µM
Nc1ccn(C[C@H]2COP(=O)(O)CO2)c(=O)n1 | HFF | HL-3 | 33.11 µM